Pooled drug test results. Numbers come from NIAID ChemDB, via PubChem.

All rows: tests in culture; species: Rhinovirus; measure: EC50

Rows are shuffled and stem from different studies.

compound	strain	read by	cells	result
CCOC(=O)c1ccc(OCCC2CCN(c3ccc(C)nn3)CC2)cc1	Serotype 72 (group A)	cytopathic effect	HELA-OHIO	0.4 µM
CSc1nsc(-c2ccc(OC(C)(C)C)cc2)c1C#N	Serotype 41 (group B)	cytopathic effect	HELA-OHIO	>40 µM
CSc1nsc(-c2ccc(OCCOc3ccc([N+](=O)[O-])cc3)cc2)c1C#N	Serotype 85 (group B)	cytopathic effect	HELA-OHIO	>2 µM
Cc1cc(Cl)ccc1Cn1cnc2c(N(C)C)nc(C(F)(F)F)nc21	Serotype 30	plaque count	M-HELA	>8 µM
CSc1nsc(-c2ccc(OCCCCOc3ccccc3)cc2)c1C#N	Serotype 9 (group B)	cytopathic effect	HELA-OHIO	>20 µM
CC(C)Oc1ccc(Cn2cnc3c(N(C)C)nc(C(F)(F)F)nc32)cc1	Serotype 21	plaque count	M-HELA	>8 µM
CSc1nsc(-c2ccc(OCCCOc3ccc([N+](=O)[O-])cc3)cc2)c1C#N	Serotype 70 (group A)	cytopathic effect	HELA-OHIO	>1 µM
COc1ccc(Cn2cnc3c(N(C)C)nc(C(F)(F)F)nc32)cc1C	Serotype 3	plaque count	M-HELA	>8 µM
Fc1cccc(Cn2cnc3c(Nc4cccc(F)c4)nc(C(F)(F)F)nc32)c1	Serotype 24	plaque count	M-HELA	1.9 µM
Cc1cc(CCCCCOc2c(Cl)cc(C3=NCCO3)cc2Cl)on1	TYPE 67	plaque count	HeLa	0.11 µg/mL
CSc1nsc(-c2ccc(OCc3ccccc3)cc2)c1C#N	Serotype 39 (group B)	cytopathic effect	HELA-OHIO	3 µM
CN(C)c1nc(C(F)(F)F)nc2c1ncn2Cc1ccccc1	Serotype 21	plaque count	M-HELA	>8 µM
Cc1cc(CCCOc2c(C)cc(-c3noc(C(F)(F)F)n3)cc2C)on1	Isolate 37	cytopathic effect / visual reading	OHIO HELA-I	0.05 µg/mL
CCOC(=O)c1ccc(OCCC2CCN(c3ccc(C)nn3)CC2)cc1	1857-CV51 (ICAM-1 receptor group 67)	neutral red	KB	0.054 µM
CCOC(=O)c1ccc(OCCOc2ccc(-c3snc(SC)c3C#N)cc2)cc1	Serotype 85 (group B)	cytopathic effect	HELA-OHIO	>2 µM
CN(C)c1nc(C(F)(F)F)nc2c1ncn2Cc1ccc(Cl)c(Cl)c1	Serotype 21	plaque count	M-HELA	>8 µM
CSc1nsc(-c2ccc(O)cc2)c1C#N	Serotype 41 (group B)	cytopathic effect	HELA-OHIO	>10 µM
CN(C)c1nc(C(F)(F)F)nc2c1ncn2Cc1ccc(S(C)(=O)=O)cc1	Serotype 1B	plaque count	M-HELA	0.5 µM
Cc1ccc(Cn2cnc3c(N(C)c4ccccc4)nc(C(F)(F)F)nc32)cc1	Serotype 2	plaque count	M-HELA	2.7 µM
CN(C)c1nc(C(F)(F)F)nc2c1ncn2Cc1ccc(Cl)c(NC=O)c1	TYPE 1B	plaque count	M-HELA	0.56 µM
CCOC(=O)c1ccc(OCCCCOc2ccc(-c3snc(SC)c3C#N)cc2)cc1	Serotype 70 (group A)	cytopathic effect	HELA-OHIO	>2 µM

The last 2 rows once more:

compound | strain | read by | cells | result
CN(C)c1nc(C(F)(F)F)nc2c1ncn2Cc1ccc(Cl)c(NC=O)c1 | TYPE 1B | plaque count | M-HELA | 0.56 µM
CCOC(=O)c1ccc(OCCCCOc2ccc(-c3snc(SC)c3C#N)cc2)cc1 | Serotype 70 (group A) | cytopathic effect | HELA-OHIO | >2 µM

ECn: concentration that inhibits the pathogen or its effect by n%.